In US6846489B1, “Vaccines containing a saponin and a sterol” (priority 1995, dated 2005):

Test system: gp120
Settings: intra-footpad with gp120

## QS21
  cytotoxic T-lymphocyte (CTL) activity in spleen cells: indicates CTL activity
